# Measurements reported in paper PMC6385310 (Scientific Reports, 2019).
# Tested on: VEEV TC-83 virus expressing a luciferase reporter gene (TC-83-luc)
# Assay: VEEV TC-83-luc luciferase reporter replication assay in Vero cells
# Type: cell-based, Venezuelan equine encephalitis virus
# Conditions: CC50 Vero / EC50 TC-83-luc
row,SMILES,"SI, selectivity index (CC50/EC50)"
1,"CC#C[C@]1(O)CC[C@H]2[C@@H]3CCC4=CC(=O)CCC4=C3[C@@H](c3ccc(N(C)C)cc3)C[C@@]21C [Compound 1, mifepristone, reference compound]",8.3
2,CN(C)c1ccc([C@H]2C[C@@]3(C)[C@@H](CC[C@@]3(O)C#C[Si](C)(C)C)[C@@H]3CCC4=CC(=O)CCC4=C32)cc1 [Compound 33],> 11.8
3,COc1ccc(C#C[C@]2(O)CC[C@H]3[C@@H]4CC[C@@]5(O)CC6(CCC5=C4[C@@H](c4ccc(N(C)C)cc4)C[C@@]32C)OCCO6)cc1 [Compound 37],> 60.3
